# PubChem BioAssay AID504761 | Drosophila RNAi Screening Center – 2011
# Screen: 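Genome-wide fly cell screen for genes dengue virus requires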 (primary screen)
# Cell system: D.Mel-2 cells from Drosophila
# Knock-down reagent: long dsRNA against Drosophila genes
# Conditions: infection with dengue virus type 2; dose and infection time not stated
# Read-out: 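Per well on two replicate plates, imaging gave the percent of cells positive for viral envelope protein, ranked by infection, and a nuclear count of cells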
# Reading the numbers: infection score: higher = more virus-infected cells; cell count: higher = more cells in the well
# Call rule: 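Very low infection ranking in both replicate wells (chance probability at most 0.065), then a retest showing infection dropped 1.5-fold or more at p below 0.05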
# Meaning of the calls: active = confirmed: knock-down lowers infection; inactive = not picked or not confirmed
# The screen tested about 22,000 reagents; shown is a random part of those with a known target gene and a result. In the full data, 116 (0.52%) are marked active. 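Calls depend on retest data that are not deposited; infection was ranked per plate without normalising between plates; the unit of the infection score is not given.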 Raw values are not corrected between plates. The record does not give: the amount of reagent, the time to read-out.
gene,dsRNA,"infection score, replicate 1","infection score, replicate 2","cell count, replicate 1","cell count, replicate 2",Call
CG6511,DRSC10656,2.85,1.11,6657,6388,inactive
TppII (Tripeptidyl-peptidase II),DRSC07565,3.56,2.36,6242,6597,inactive
CG34428,DRSC10119,1.55,3.06,6575,6041,inactive
Pgant35A (Polypeptide N-acetylgalactosaminyltransferase 35A),DRSC03557,13.9,10.4,5309,6362,inactive
Pgant35A (Polypeptide N-acetylgalactosaminyltransferase 35A),DRSC28249,5.18,10.8,1660,6011,inactive
Phax (Phosphorylated adaptor for RNA export),DRSC07066,7.32,6.2,6067,6214,inactive
xmas-1 (retired record),DRSC20386,4.33,14.4,6183,6034,inactive
xmas-1 (retired record),DRSC24501,15.9,1.64,6229,6290,inactive
CG14625,DRSC18633,1.82,6,4610,6534,inactive
CG14625,DRSC25191,3.04,4.87,6389,6328,inactive
Tnpo-SR (Transportin-Serine/Arginine rich),DRSC00546,2.8,1.39,5744,6118,inactive
Upf3,DRSC04092,33.6,47.8,5500,4704,inactive
Upf3,DRSC27316,24.4,4.56,4769,5898,inactive
Nup50 (Nucleoporin 50kD),DRSC06827,3.86,12.6,5952,5802,inactive
Nup50 (Nucleoporin 50kD),DRSC26470,2.51,7.17,5746,5553,inactive
Ir11a (Ionotropic receptor 11a),DRSC19699,2.23,1.53,6503,6586,inactive
CG4364,DRSC02742,6.4,14.2,6531,5734,inactive
CG4364,DRSC29531,20.1,,5238,405,inactive
Rich (RIC1 homolog),DRSC11607,7.98,9.78,5851,6728,inactive
Rich (RIC1 homolog),DRSC28514,2.3,8.79,1783,1764,inactive
CG1552,DRSC19665,8.64,6.41,6319,6446,inactive
CG1552,DRSC25533,2.53,3.03,6174,5964,inactive
eEF1alpha1 (eukaryotic translation elongation factor 1 alpha 1),DRSC07421,3.54,3.71,4067,4203,inactive
eEF1alpha1 (eukaryotic translation elongation factor 1 alpha 1),DRSC25133,0.77,2.13,4526,4656,inactive
ccb (central complex broad),DRSC20501,3.06,3.14,4667,6170,inactive
mor (moira),DRSC15378,4.32,4.64,5376,5064,inactive
mor (moira),DRSC27980,4.38,7.32,4698,4834,inactive
CG13924,DRSC08393,0.75,4,6691,6068,inactive
CG30392,DRSC22341,0.76,4.57,6160,6832,inactive
Acbp1 (Acyl-CoA binding protein 1),DRSC03093,3.62,10.5,6154,6184,inactive
Acbp1 (Acyl-CoA binding protein 1),DRSC29718,13.8,7.91,6577,6211,inactive
HP1D3csd (Heterochromatin Protein 1D3 chromoshadow domain),DRSC19548,2.24,0.91,6351,6138,inactive
nAChRalpha3 (nicotinic Acetylcholine Receptor alpha3),DRSC18800,7.38,16.5,6162,5995,inactive
nAChRalpha3 (nicotinic Acetylcholine Receptor alpha3),DRSC25751,12.8,18.3,5505,6064,inactive
CG6839,DRSC10723,4.18,7.51,6859,6414,inactive
Topors (Topoisomerase I-interacting protein),DRSC06531,7.33,7.55,5266,6268,inactive
Tim17a2,DRSC12252,2.74,1.48,6635,6889,inactive
Tim17a2,DRSC23837,0.82,3.01,6620,6345,inactive
CG3436,DRSC00605,12.2,13.3,4913,4489,inactive
PIG-K (Phosphatidylinositol glycan anchor biosynthesis class K),DRSC18496,2.66,8.89,5480,5436,inactive
Pfk (Phosphofructokinase),DRSC07506,2.74,7.28,5650,6140,inactive
Pfk (Phosphofructokinase),DRSC27413,16.5,29.5,6305,4582,inactive
conv (convoluted),DRSC07213,9.52,24.6,6774,5559,inactive
CG8910,DRSC07414,5.21,13.4,7159,3713,inactive
CG8910,DRSC28591,16.6,7.26,3955,2783,inactive
Mdr50 (Multi drug resistance 50),DRSC07467,18,15.4,6575,4813,inactive
Mdr50 (Multi drug resistance 50),DRSC23705,4.92,2.45,6255,6154,inactive
CG12811,DRSC14549,3.34,19.3,6010,6051,inactive
ND-51 (NADH dehydrogenase (ubiquinone) 51 kDa subunit),DRSC03145,4.23,9.49,5669,5406,inactive
CG34445,DRSC22404,0.5,1.14,6338,6815,inactive
Or1a (Odorant receptor 1a),DRSC18689,5.06,1.78,6229,6974,inactive
CG7376,DRSC10829,9.02,17.1,6100,5615,inactive
"Sr-CIII (Scavenger receptor class C, type III)",DRSC22262,1.78,3.45,6186,6382,inactive
CG12259,DRSC23281,0.78,2.06,6267,6016,inactive
CG12259,DRSC28180,2.91,16.7,6591,5633,inactive
CG17896,DRSC18502,8.59,7.55,6905,7037,inactive
CG17896,DRSC28472,6.9,7.72,3056,2525,inactive
nero,DRSC15432,2.99,1.4,6063,6839,inactive
Orct (Organic cation transporter),DRSC16777,2.67,2.44,6897,6144,inactive
Orct (Organic cation transporter),DRSC25574,9.88,3.79,5505,6258,inactive
CG33281,DRSC00421,15.8,3.33,6728,7288,inactive
CG15080,DRSC06511,2.88,0.54,5733,6331,inactive
CG15080,DRSC29374,,20.6,323,5630,inactive
wfs1 (wolfram syndrome 1),DRSC15676,2.08,3.69,6102,839,inactive
CG6432,DRSC16039,3.2,3.5,6290,6578,inactive
CG16974,DRSC02551,6.76,9.42,6673,6197,inactive
CG16974,DRSC28759,,,403,404,inactive
CG5913,DRSC15916,6.89,8.06,6907,5445,inactive
CG11858,DRSC14412,3.04,4.36,6216,6448,inactive
CG11858,DRSC29222,,,388,231,inactive
CG13427,DRSC06389,2.26,1.24,5809,5975,inactive
ClC-a (Chloride channel-a),DRSC14947,0.82,2.05,6581,6540,inactive
ClC-a (Chloride channel-a),DRSC14948,0.81,1.76,6308,6578,inactive
ClC-a (Chloride channel-a),DRSC16142,16,19.9,5989,5802,inactive

Laid out differently: entries from further up
Tnpo-SR (Transportin-Serine/Arginine rich) [DRSC00546]
- infection score, replicate 1: 2.8
- infection score, replicate 2: 1.39
- cell count, replicate 1: 5744
- cell count, replicate 2: 6118
- Call: inactive

Upf3 [DRSC04092]
- infection score, replicate 1: 33.6
- infection score, replicate 2: 47.8
- cell count, replicate 1: 5500
- cell count, replicate 2: 4704
- Call: inactive

Upf3 [DRSC27316]
- infection score, replicate 1: 24.4
- infection score, replicate 2: 4.56
- cell count, replicate 1: 4769
- cell count, replicate 2: 5898
- Call: inactive

Nup50 (Nucleoporin 50kD) [DRSC06827]
- infection score, replicate 1: 3.86
- infection score, replicate 2: 12.6
- cell count, replicate 1: 5952
- cell count, replicate 2: 5802
- Call: inactive
